Assay results from patent US7572612B2, “Method of production of para-hydroxycinnamic acid using a thermostable TAL enzyme” (E.I. du Pont de Nemours and Company, priority 2006, dated 2009).

Experiment: Conversion of tyrosine to pHCA in 3 L Applikon BioReactors
Format: cell-based, E. coli
Settings: pH 9.9
Protocol: The following experiment was performed in an Applikon BioReactor (9.0 liter working volume) where pH and temperature of the reaction were controlled. Both strains DPD5154 and DPD5124 were tested. The E. coli DPD5154 (PcTAL) cells were produced by the protocol described in Example 6, with a final cell density of […]. In the case of E. coli DPD5124 (RgTAL) the inoculum was grown in a 2.0 L shake flask containing 500 ml of the following medium (in grams per liter) KH2PO4 (2.0 g/L), K2HPO4 (13.0 g/L), (NH4)2HPO4 […]), MgSO4.7H2O (1.0 g/L), yeast extract (2.0 g/L), Ferric Ammonium Citrate (0.1 g/L). The pH was adjusted to 7.0 and the medium steam sterilized. Glucose (30.0 g/L) and ampicillin (50 mg/L) were added post-sterilization. The culture was grown in 2 L flasks with 500 mL medium, at 35° C. to about OD550 of 2.0 and then the entire contents was used to inoculate the fermentor. The fermentor was controlled at 36° C., pH 6.8, with the dissolved oxygen (DO) tension of 25% controlled with cascade of agitation and air flow with agitation from 400 to 1000 rpm and airflow from 2 to 16 SLPM. The overhead pressure was 0.5. When the glucose level reached below 4.0 g/L a glucose feed program with 60% glucose (w/w) was initiated, consisting of: first 4 h at 0.36 g/min, next 12 h at 0.73 g/min and to the end of run at 0.56 g/min. When the culture reached an OD550 of 35, arabinose was added to final concentration of 0.5 g/L The fermentation was terminated 20 h after arabinose addition. The final cell density in the fermentation broth was an OD550 of 90 and the final volume was about 9 liter. The g dcw/L was determined assuming that 1.0 OD550 contained 0.33 g dcw/L:=30 g dcw/L.
The cells were harvested by centrifugation and stored as a frozen paste at −80° C. until use. Before use, the cell paste was thawed and suspended in the saline solution to about 10% w/v. The cell dry weight concentration was calculated from [cells wet weight]×[% solids] where [% solids] was determined after drying the cells in a vacuum oven, at 90° C. for >16 h.
The tyrosine used was AR grade (J. T. Baker). It was suspended in distilled, deionized water at 33% w/w concentration, homogenized in a blender and added to about 50 g/L final concentration. Reactions were conducted in 3 L Applikon BioReactors (Applikon, De Brauwweg 13, The Netherlands), with a 1-2 L working volume. The set points for the control systems were pH 9.9 with automatic addition of NaOH 25% w/v with agitation at 400 rpm. The bioconversion was typically done by adding the tyrosine suspension to the appropriate concentration, adjusting the pH and temperature to the determined set point, adding the cell suspension to the appropriate concentration, and DI water to the final volume.

B1: PcTAL: thermostable tyrosine ammonia lyase (PAL/TAL) enzyme from Phanerochaete chrysosporium, SEQ ID NO:1 (protein, listed as Phanerochaete chrysosporium)
chain: MPSRIDYYTSSGNGYAQSRKSSAIYPASASTGHAAPSTERKPELLDKFVEAYDELQSYREGKPVIVDGHNLSIPAVAATARFGAAVVLDENPETHERVLQSRRVIVDKVSTQRSVYGVSTGFGGSADTRTSDPLQLGHALLQHQHVGVLPTQTESPLPALPLGDPLATTSMPEAWVRGAILIRMNSLIRGHSGVRWELIEKMGELLRENITPLVPLRGSISASGDLSPLSYIAGTLIGSPAIRVFDGPASYGARRILPSNIALANHGVAPIPLSSKEHLGILNGTAFSASVGALALNEAVHLSLLAQVCTAMGTEAMIGAVGSFDAFIHDTARPHPGQVEVARNVRTLLEDSQMAVKAEDEVHIAEDEGELRQDRYPLRTAAQFLGPQIEDILSAHETVTLECNSTTDNPLIDGETGTVHHGGNFQAMAVTNAMEKTRLAIHHIGKLLFAQATELINPMMNRGLPPNLAATDPSHNYFAKGVDIHLAAYVGELGFLASPVSSHIQSAEMHNQAVNSLALVSARYTISALDVLSLLTAAYLYVLCQALDLRAMHNDLQSSLSAIVRELLPKHFPSAAKRADALLPILERTIFRALNSSSSADCKARMVSVAASTTTPLVDFLSADAALASELANITAFRTELATRAADALTTLRTQYLEGARGAAPASKYLGKTRPVYEFVRVTLNVPMHGRENLHNFEMGPGVEDGIIGNNISTIYEAIRDGKMQNVVMQLVKSIKA
In the case of B1, the “pHCA g/L” value (30 C., cell conc 6 g/L, reaction time 19 h) is reported as 41.8 g/L, the “pHCA g/L” value (35 C., cell conc 6 g/L, reaction time 15 h) is reported as 41.78 g/L and the “pHCA g/L” value (40 C., cell conc 6 g/L, reaction time 7 h) is reported as 41.6 g/L. The “pHCA g/L” value (43 C., cell conc 6 g/L, reaction time 6 h) was 41.4 g/L, the “pHCA g/L” value (45 C., cell conc 2 g/L, reaction time 19 h) was 42.2 g/L and the “pHCA g/L” value (45 C., cell conc 4 g/L, reaction time 10 h) was 41.8 g/L. For the same molecule, the “pHCA g/L” value (45 C., cell conc 6 g/L, reaction time 6 h) was 41 g/L and the “pHCA g/L” value (48 C., cell conc 6 g/L, reaction time 6 h) was 42 g/L.
